The nature of this data set: FTICR-MS of DMG-metal complexes. To be noted: aqueous DMG 1.6 mM, metal 0.16 mM. Format: physicochemical.

The record followed here is patent publication US20220117266A1, “NICKEL CHELATION THERAPY” (priority 2019, published 2022).

Consider `CC(=NO)C(C)=NO` [DMG, dimethylglyoxime], for which the “DMG coordination with Fe, Zn or Se” value is “does not coordinate”.
